PSTVd stem 26 mutant pool in Nicotiana benthamiana

Values reported by Wu et al. 2024 (doi:10.1371/journal.ppat.1012142).

Region: stem 26 of PSTVd (intermediate strain), upper and lower strand joined, each 5' to 3', the first 5 letters being the upper strand. Wild type: AGGGUACCCU. Varied positions (N): AGGGUNNCNN.

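Three N. benthamiana plants were inoculated with the whole mutant pool. Progeny were sequenced from the inoculated region (day 5), the margin of the inoculated leaf (day 10) and systemic leaves (day 12).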

Values are reads per thousand in the sample; higher means more abundant, 0 means not found. Each site shows the three plants. "Pool" is the share in the plasmid pool used as inoculum, on the same scale. The inoculated region was read from the minus strand, the other sites from the plus strand. For reference, wild type rose from 44.9 per thousand in the pool to 297, 323, 447 (inoculated region), 793, 829, 846 (leaf margin) and 974, 853, 877 (systemic leaves). The authors trace changes outside the varied positions to PCR and sequencing errors or to mutation in the plant; presence does not show that a variant is infectious alone. Samples held 23,251 to 70,159 reads, so the smallest values rest on one or two reads.

sequence,pool,inoculated region,leaf margin,systemic leaves
AGGGUGCCGU,3.24,1.37 1.02 0.860,0 0 0.0298,0 0 0
AGGGUGCCUA,3.13,2.29 2.39 1.51,1.29 0 0.803,0 0 0
AGGGUGCCUC,4.42,3.31 4.17 2.28,1.22 2.01 1.01,0.0374 1.10 0
AGGGUGCCUG,2.80,2.46 2.26 2.19,1.07 0 0.803,0 0 0
AGGGUGCCUU,3.04,2.15 2.49 1.85,1.02 0 0.982,0 0 1.80
AGGGUGCGCA,0.0493,0.0236 0.0263 0,0 0 0,0 0 0
AGGGUGCGCC,0.0164,0 0 0,0 0 0,0 0 0
AGGGUGCGCG,0.0329,0 0 0,0 0 0,0 0 0
AGGGUGCUCA,0.0493,0.827 1.34 1.08,1.25 0 0.863,0 0 0
AGGGUGCUCG,0.0329,1.16 1.86 1.76,0.846 0 0,0 0 0
AGGGUGCUCU,0.0329,1.28 1.58 1.55,1.11 0 0,0 0 0
AGGGUGGACG,0.0329,0 0.0263 0,0.0223 0 0,0 0 0
AGGGUGGCAA,4.16,1.23 1.92 1.12,1.18 1.31 0,0 0.0143 0
AGGGUGGCAC,4.08,3.12 3.10 2.62,0.868 0.0261 1.19,0.0187 1.31 0.826
AGGGUGGCAG,2.42,1.11 0.709 0.731,0 0 0,0 0 0
AGGGUGGCAU,3.91,1.46 1.79 0.645,0 0 0.0298,0 0.0143 0.0331
AGGGUGGCCA,3.45,1.09 1.05 0.645,0 0 0.0298,0 0 0
AGGGUGGCCC,2.78,1.91 2.13 1.94,1.07 0 0.893,0 0 0
AGGGUGGCCG,3.67,1.58 1.39 0.903,0.0223 0 0,0 0 0
AGGGUGGCCU,3.55,1.06 0.814 0.817,0.0223 0 0,0 0.0143 0
AGGGUGGCGA,2.94,1.25 0.919 0.344,0 0 0.0298,0 0 0
AGGGUGGCGC,3.75,2.29 2.84 2.54,3.27 1.41 1.01,0 0 0.0165
AGGGUGGCGG,2.38,1.18 0.656 0.731,0 0 0,0 0 0
AGGGUGGCGU,4.52,2.43 1.94 1.08,0.0223 0 0,0 0 0
AGGGUGGCUA,2.80,1.82 2.39 1.94,1.18 0 1.22,0 0 0
AGGGUGGCUC,3.08,2.43 2.26 1.81,1.22 1.52 0.952,0.0374 0.941 0.876
AGGGUGGCUG,2.55,2.10 2.18 1.94,1.02 0 1.19,0 0 0
AGGGUGGCUU,3.54,1.84 2.31 2.11,1.00 0 0.803,0 0 0.909
AGGGUGGGCC,0.0329,1.02 1.94 1.38,1.18 0 0,0 0 0
AGGGUGGGCG,0.0329,0.0236 0 0,0 0 0.0298,0 0 0
AGGGUGGGCU,0.0493,0.0236 0 0,0 0 0,0 0 0
AGGGUGGUCC,0.0493,1.28 1.63 1.59,1.34 2.22 0.595,0.0747 1.28 0.777
AGGGUGGUCG,0.0658,0.898 1.89 1.33,1.22 0 0.565,0 0 0
AGGGUGUACG,0.0493,1.04 1.52 0.946,1.47 0 0.833,0 0 0
AGGGUGUCAA,2.57,2.20 2.63 2.28,1.20 0 1.01,0.0187 0 0
AGGGUGUCAC,3.64,2.46 2.94 2.67,1.07 1.88 0.952,0.0374 1.23 0.744
AGGGUGUCAG,6.27,4.35 5.38 3.53,0.913 0 1.04,0 0 0.0165
AGGGUGUCAU,2.63,1.70 2.31 1.72,1.05 0 0.893,0 0 0
AGGGUGUCCA,3.14,2.58 2.81 2.32,1.22 0 0.774,0 0 0.860
AGGGUGUCCC,5.63,4.23 4.80 3.31,1.29 2.46 1.37,0.355 1.38 2.02
AGGGUGUCCG,4.93,3.78 4.12 2.84,1.07 0 0.952,0 0 0.810
AGGGUGUCCU,3.75,3.00 3.65 1.94,1.14 0 1.07,0 0 7.54
AGGGUGUCGA,2.62,1.96 2.31 2.62,1.14 0 0.803,0 0.0143 0
AGGGUGUCGC,4.26,3.17 4.33 3.66,1.27 2.35 1.10,0.0747 0.884 0.975
AGGGUGUCGG,4.28,3.78 3.52 2.88,1.05 0 1.34,0 0.214 0.909
AGGGUGUCGU,3.47,2.29 2.70 1.94,1.02 0 0.625,0 0 0.893
AGGGUGUCUA,3.49,2.03 2.42 2.19,2.09 2.48 1.25,0.112 1.13 1.02
AGGGUGUCUC,3.67,2.60 3.36 2.32,1.58 2.04 0.714,0.0747 1.31 4.36
AGGGUGUCUG,2.98,1.98 2.15 1.42,1.11 1.70 0.922,0.0561 1.15 0.876
AGGGUGUCUU,4.89,3.47 3.23 2.37,2.00 2.51 1.13,0.149 1.41 0
AGGGUGUGCA,0.0329,0.851 2.02 1.29,1.11 0 0,0 0 0
AGGGUGUGCC,0.0329,0.803 1.68 1.59,1.60 1.59 1.13,0.112 0.798 0.777
AGGGUGUGCG,0.0493,1.04 1.68 1.46,1.22 0 0.982,0 0 0
AGGGUGUUCA,0.0329,1.23 1.86 1.51,1.11 1.78 1.04,0.0374 1.04 0.942
AGGGUGUUGC,0.0329,1.32 1.86 1.12,1.00 1.75 0.893,0.0561 1.17 0.777
AGGGUUAACC,0.0329,0.0236 0.0263 0,0 0 0,0 0 0.0165
AGGGUUACAA,2.66,0.992 0.551 0.817,0 0 0,0 0.0143 0.0165
AGGGUUACAC,4.65,2.50 2.23 1.33,0 0 0.0298,0 0 0.165
AGGGUUACAG,5.64,2.22 3.12 2.19,0 0 0,0 0.0143 0.0165
AGGGUUACAU,3.29,1.06 0.683 0.989,0 0 0.0298,0 0 0
AGGGUUACCA,2.71,0.827 1.26 0.774,0 0 0,0 0.0143 0
AGGGUUACCC,0.0493,0.496 0.394 0.344,0 0 0,0 0 0.0826
AGGGUUACCG,3.26,1.02 1.02 0.688,0 0 0,0 0 0
AGGGUUACCU,3.47,1.25 1.26 1.59,0.0223 0 0,0 0.0143 0.0165
AGGGUUACGA,2.76,0.851 0.578 0.602,0 0 0,0 0 0
AGGGUUACGC,2.42,0.992 0.814 0.645,0 0 0,0 0 0

A selection of 5 entries from above:

sequence,pool,inoculated region,leaf margin,systemic leaves
AGGGUGGCCA,3.45,1.09 1.05 0.645,0 0 0.0298,0 0 0
AGGGUGGUCG,0.0658,0.898 1.89 1.33,1.22 0 0.565,0 0 0
AGGGUGGCAU,3.91,1.46 1.79 0.645,0 0 0.0298,0 0.0143 0.0331
AGGGUGGCGU,4.52,2.43 1.94 1.08,0.0223 0 0,0 0 0
AGGGUGUUCA,0.0329,1.23 1.86 1.51,1.11 1.78 1.04,0.0374 1.04 0.942